Format in all cases: cell-based
Experiment [1] has as its system HIV-1 patient viruses with protease L90M. The experiment can be described thus: Phenotypic susceptibility profiles of 333 patient virus samples with L90M (not 30 or 50).
For experiment [2] the test system is unchanged. The experiment can be described thus: Phenotypic susceptibility profiles of 58 patient virus samples with L90M, no other primary mutations.
The test system of experiment [3] is HIV-1 patient-derived protease and reverse transcriptase segments (N88S in PR) in resistance test vectors. The experiment can be described thus: Phenotypic drug susceptibility test with resistance test vectors from patient samples.

On to `CC(C)(C)NC(=O)[C@@H]1C[C@@H]2CCCC[C@@H]2CN1C[C@@H](O)[C@H](Cc1ccccc1)NC(=O)[C@H](CC(N)=O)NC(=O)c1ccc2ccccc2n1` [saquinavir], for which, in experiment [1], the “Percent of viruses with indicated primary mutation(s) with reduced susceptibility (fold change in IC50 > 2.5)” value was found to be 79.3%. The “Percent of viruses with indicated primary mutation(s) with reduced susceptibility (fold change in IC50 > 10)” value in experiment [1] worked out at 43.5%. The “Mean SQV fold change” value worked out at 2.4 fold in experiment [1] (number of secondary mutations (weighted count) 0); 2.4 fold in experiment [1] (number of secondary mutations (weighted count) 1); 5.4 fold in experiment [1] (number of secondary mutations (weighted count) 2); 10.0 fold in experiment [1] (number of secondary mutations (weighted count) 3); 36.6 fold in experiment [1] (number of secondary mutations (weighted count) 4); 50.3 fold in experiment [1] (number of secondary mutations (weighted count) 5). In addition, the “Mean SQV fold change” value in experiment [1] (number of secondary mutations (weighted count) 6 or more) is on record as 94.2 fold. The “Percent of viruses with indicated primary mutation(s) which are drug sensitive (fold change in IC50 < 2.5)” value in experiment [2] is on record as 46.6%. Besides, the “Fold Change vs. Reference” value was found to be 1.88 fold in experiment [3] (patient sample 360, prior PRI IDV, PR I13V, K20M, M36V, N37A, M46I, I62V, L63P, I93L); 0.26 fold in experiment [3] (patient sample 627, prior PRI IDV, PR I13I/V, E35D, M46L, L63P, I64V, I73V); 0.73 fold in experiment [3] (patient sample 0732, prior PRI NFV, PR K14R, I15V, K20T, E35D, M36I, R41K, I62V, L63Q); 1.41 fold in experiment [3] (patient sample 0910, prior PRI NFV, PR M46I, L63P, V77I, I93I/L); 1.55 fold in experiment [3] (patient sample 1208, prior PRI NFV, PR I62V, L63P, V77I); 1.28 fold in experiment [3] (patient sample 3542, prior PRI IDV, PR I13V, K14R, N37D, M46I, L63P, I93L). In addition, the “Fold Change vs. Reference” value in experiment [3] (patient sample 3654, PR I13V, R41K, M46I, L63P, V77I, I93L) was determined as 1.80 fold.

Source of the values: patent US7138231B2 (priority 2000, dated 2006).
